A short description of the data set: general procedure: Fmoc solid-phase peptide synthesis; Fmoc-Linker AM-Champion, 1% cross-linked (Biosearch Technologies), PEG-PS with modified Rink linker; HBTU/DIEA; HATU/DIEA for some residues or peptides. The conditions noted are these: for oxidative folding yield: oxidative folding step; for conjugation yield: conjugation step, overall yield of the trimerization reaction.

[1] abbreviates: overall yield of the oxidation reaction.
Setting [2] is: several disulfide bridges, sequence written open.

Where a sequence shows no end group, the ends are not given.

“(CCIZN11IZ)3 (CCGGIKKEIEAIKKEQEAIKKKIEAIEKLLQLTVWGIKQIKKEIEAI; disulfide-linked homotrimer)”: under setting [1], the oxidative folding yield entry is “more than 70%”.

Turning to “(CCIZN13)3 (CCGGIKKEIEAIKKEQEAIKKKIEAIEKLLQLTVWGIKQLQ; disulfide-linked homotrimer)”, the oxidative folding yield result under setting [1] is given as “more than 80%”.

As to “(CCS10N17)3 (CCGGIEKKIEAIEKLLQLTVWGIKQLQARIL; disulfide-linked homotrimer)”, the oxidative folding yield result was “about 30%”.

In the case of “(CCS17N17)3 (CCGGIEKKIEAIEKKIEAIEKLLQLTVWGIKQLQARIL; disulfide-linked homotrimer)”, the oxidative folding yield entry under setting [1] is given as “more than 70%”.

Regarding “CCGGIKKEIEAIKKEQEAIKKKIEAIEKLLQLTVWGIKQLQARIL”, the oxidative folding yield result under setting [2] is “more than 80%”.

As for “SGGCCGGIKKEIEAIKKEQEAIKKKIEAIEKLLQLTVWGIKQLQARIL”, the oxidative folding yield result under setting [2] is “about 70%”.

On to “ac-C(Acm)(thioE10N17)3 (peptide 1 CCCIEEKIEEIEELLQLTVWGIKQLQARIL; peptide 2 GGGIEEKIEEIEELLQLTVWGIKQLQARIL; cyclised or stapled)”, for which the conjugation yield result is given as “more than 90%”.

B1: NH2—C(Fm)(thioIZN17)3 (peptide)
peptide 1: CCCGGIKKEIEAIKKEQEAIKKKIEAIEKLLQLTVWGIKQLQARIL
peptide 2: GGGIKKEIEAIKKEQEAIKKKIEAIEKLLQLTVWGIKQLQARIL
As for B1, the conjugation yield result is “more than 90%”.

B2: ac-C(Acm)(thioIZN17)3 (peptide)
peptide 1: CCCGGIKKEIEAIKKEQEAIKKKIEAIEKLLQLTVWGIKQLQARIL
peptide 2: GGGIKKEIEAIKKEQEAIKKKIEAIEKLLQLTVWGIKQLQARIL
For the molecule B2, the conjugation yield entry was “more than 90%”.

B3: ac-C(Acm)(thioS17N17)3 (peptide)
peptide 1: CCCGGIEKKIEAIEKKIEAIEKLLQLTVWGIKQLQARIL
peptide 2: GGGIEKKIEAIEKKIEAIEKLLQLTVWGIKQLQARIL
modifications: cyclised or stapled
In the case of B3, the conjugation yield entry is reported as “more than 90%”.

The values above are taken from patent US7811577B2 (priority 2004, dated 2010).
